Measured values taken from publication PMC2217675, “Quantitative High-Throughput Screen Identifies Inhibitors of the Schistosoma mansoni Redox Cascade” (PLoS Neglected Tropical Diseases, 2008).
pIC50: −log10 of the molar value. Where two headings read alike, the source gives them in different places.

Amino acid sequences for entries named in this document (tags omitted). Residues count along the entry.
UniProt Q962Y6, 1-598: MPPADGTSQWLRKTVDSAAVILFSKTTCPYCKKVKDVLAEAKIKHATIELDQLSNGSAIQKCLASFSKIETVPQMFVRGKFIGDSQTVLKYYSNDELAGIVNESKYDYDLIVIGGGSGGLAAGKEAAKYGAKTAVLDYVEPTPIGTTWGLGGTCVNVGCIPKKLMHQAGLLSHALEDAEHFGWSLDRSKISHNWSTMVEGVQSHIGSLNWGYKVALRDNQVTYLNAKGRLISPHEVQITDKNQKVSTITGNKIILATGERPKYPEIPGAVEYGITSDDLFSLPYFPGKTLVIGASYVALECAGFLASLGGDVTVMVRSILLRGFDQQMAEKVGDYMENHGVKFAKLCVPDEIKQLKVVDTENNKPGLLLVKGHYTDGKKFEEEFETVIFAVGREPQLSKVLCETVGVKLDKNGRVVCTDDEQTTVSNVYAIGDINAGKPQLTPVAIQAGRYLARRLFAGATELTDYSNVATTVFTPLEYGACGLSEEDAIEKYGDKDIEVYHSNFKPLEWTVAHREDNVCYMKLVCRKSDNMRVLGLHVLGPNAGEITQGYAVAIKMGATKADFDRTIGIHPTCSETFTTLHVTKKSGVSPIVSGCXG

What was measured:
S. mansoni TGR/Prx2 [1] = target: T1, S. mansoni TGR/Prx2 (Schistosoma mansoni, UniProt Q962Y6); experiment: Confirmation: screening TGR/Prx2 assay on powder samples, 24-point titration; assay type: biochemical
TGR = TGR (Schistosoma mansoni, UniProt Q962Y6); experiment: TGR activity assay with DTNB as substrate; assay type: biochemical; details: read-out: TGR Assay IC50, 15 nM TGR
S. mansoni TGR/Prx2 [2] = target: T1, S. mansoni TGR/Prx2; details: for pIC50: read-out: qHTS IC50
[3] = read-out: IC50 on re-test (confirmation), powder samples, values in text
[4] = read-out: Confirmation IC50, identical assay as in the qHTS, independently acquired powder samples

SMILES | pIC50 (S. mansoni TGR/Prx2 [1]; [3]) | pIC50 (TGR) | pIC50 (S. mansoni TGR/Prx2 [2]; primary screen, values in text) | pIC50 (S. mansoni TGR/Prx2 [1]; [4]) | activity in qHTS (S. mansoni TGR/Prx2 [2]; primary screen) | pIC50 (S. mansoni TGR/Prx2 [2]; initial high throughput screen of the collection, 25 nM TGR, 50 nM Prx2)
O=P(Nc1nccs1)(c1ccccc1)c1nc2ccccc2s1 (stereo not shown) | 7.60 | 7.60 | 7.43 | – | – | –
O=P(Nc1ccc(Cl)cn1)(c1ccccc1)c1nc2ccccc2s1 (stereo not shown) | 6.61 | 6.10 | – | 6.60 | – | –
O=P(Nc1nccs1)(c1ccccc1)c1ccccc1 | – | < 4.30 | – | < 4.24 | inactive | < 4.24
